Measured values reported in the supplement of paper PMC9931576.
Human monoclonal antibodies against the spike receptor-binding domain (heavy:light variable regions). IC50 against pseudoviruses bearing the spike of naturally observed variants; lower = stronger; >10 µg/ml means not reached at the top dose. No active / inactive call. The stated detection limit is 0.0005 µg/ml; values near or below 0.001 µg/ml lie at the floor of the assay.

B1: BD56-548 (protein)
chain 1: QVTLRESGPALVKPTQTLTLTCTFSGFSLTTRGMCVSWIRQPPGKALEWLALIDWDDDKYYSTSLKTRLTISKDTSKNQVVLTMTNMDPVDTATYYCARISGIAVEYYHYGMDVWGQGTTVTVSS
chain 2: SYELTQPPSVSVSPGQTARITCSGEPFPNLYAYWYQQKPGQAPVLLIYKDTERPSGIPERFSGSSSGTTVTLTISGVQAEDEADYYCQSADSSGVVFGGGTKLTVL
B2: BD56-536 (protein)
chain 1: QVQLVQSGSELKKPGASVKVSCKALGYPFTTFAMNWVRQAPGQGLKWMGWINTNTGNPTYAQGFTGRFVFSLDTSVSTAYLQISSLKAEDTAVYYCASWAGSVGPGWFDPWGQGTLVTVSS
chain 2: SYVLTQPPSVSVAPGQTATITCAGDNIGTKSVHWYQQKPGQAPLLVIYYDSDRPSGIPERFSGSNSGNTATLTVSRVEGGDEADYYCQVWHSSNDHVDDVVFGGGTKLTVL
B3: BD56-563 (protein)
chain 1: QVQLVESGGGVVQPGRSLRLSCAASGFTFSSYAMHWVRQAPGKGLEWVAVILYDGSNKFYADSVKGRFTISRDNSKHTLYLQMNSLRGEDTAVYYCARDTLDRALVTWFDYWGQGTLVTVSS
chain 2: DIQMTQSPSSLSASVGDRVSIACRASQNIASYLNWYQQKPGKAPKLLIYTASSLQSGVPSRFSGSGSGTDFTLTISSLQPEDFATYYCQQSYSTPPWTFGQGTKVEIK
B4: DH1161-2 (protein)
chain 1: QVQLVQSGAEVKKPGALLRVSCKGSGDTSTNHAIAWVRQAPGQGLEWMGWINVYNGRTNYAQKFQGRVTLTTDTATSTAYMELSSLRSDDTAVYYCARWIHRDFDWLPYGMFMDVWGQGTTVTVSS
chain 2: QSALTQPPSASGSPGQSVTISCTGTSSDVGVYKYVSWYQHHPGKTPKVIIYEVSKRPSGVPDRFSGSKSGNTASLTVSGLQAEDEADYYCTSYEADNTLVLGGGTKLTVL
B5: BD56-541 (protein)
chain 1: QVQLVQSGAEVKKPGSSVKVSCKASGGSFRNYAISWVRQAPGQGLEWMGRSIPVLGIANYAQKFQGRVTITADKSATTAYMELSSLRSEDTAVYYCARADRFTIAATGEGYWGQGTLVTVSS
chain 2: DIQMTQSPSSLSASVGDRVTITCQASQDISNSLNWCQQKPGKAPKFLIYDASTLETGVPSRFSGTGSGTDFTFTISSLQPEDVATYYCQQYDTLPWTFGQGTKVEIK
B6: BD56-542 (protein)
chain 1: QVHLEQSGAEVKKPGSSVKVSCKAPGGTFSSYAISWVRQAPGQGLEWMGKIIPILGIANYAQTFQVRVTITADKSTGTAYMELSSLRSEDTALYYCARERGYSGDGSSWYFDLWGRGTLVTVSS
chain 2: SVLTQPPSVSGAPGQRVTISCTGSNSNIGAGYDVHWYQQLPGTAPKLLIYANNNRPSGVPDRFSGSKSGTSASLAITGLQAEDEADYYCQSYDSSLNDSGVFGGGTKLTVL
B7: BD56-553 (protein)
chain 1: EVQLVESGGGLVQPGGSLRLSCAASGFTFSTYDMHWVRQGAGKGLEWVSGIGTSGDTYYADSVKGRFTISRENAKNSLYLQMNSLRAGDTAVYYCARGYFQDDYGPNWFDPWGQGTLVTVSS
chain 2: DIQMTQSPSSLSASVGDRITITCRASQSISNYLNWYQQKPGRAPKLLIYAASSLQRGVPSRFSGSGSGTDFTLTISSLQPEDFASYYCQQSYVIPPWTFGQGTKVEIK
B8: BD56-544 (protein)
chain 1: QVQLVQSGPEVKKPGTSLKVSCKASGFTFSNSAVQWVRRARGQGLEWIGWIVVGNGETNYAQRFQERLTITRDMSRDMSTSTVYMELRSLRSDDTAVYYCAADRVETMVRFREGGMDVWGRGTTVTVSS
chain 2: SYELTQPPSVSVSPGQTARITCSGDAWPKQYAYWYQQKPGQAPVLVIYKDSERPSGIPERFSGSSSGTIVTLTISGVQAEDEADYYCQSADDRQVVFGGGTKLTVL
B9: BD56-568 (protein)
chain 1: EVQLVESGGGLVQPGGSLRLSCAASGFTFSSYDMHWVRQATGKSLEWVSAIGIAGDTYYPDSVKGRFTISRENAKNSLYLQMNSLRAGDTAMYYCTRITHSGIAAGGRMSYYYYMDVWGKGTTVTVSS
chain 2: DIQMTQSPSSLSASVGDRVTITCRASQSIRIFLNWYQLKPGKAPNLLIYGASSLQNGVPSRFSGSGSGTDFTLTINSLQPEDFATYYCQQTYSSPGSTFGGGTKVEIK
B10: BD56-572 (protein)
chain 1: QVQLQESGPGLVKPSQTLSLTCTVSRGSIRSGGFSWSWIRQHPGKGLEWLGNINPSGSTNYNPSLRNRLTISLDTSKNQFSLKVTSVTAADTAVYYCARLETGGYPHWFDPWGQGTLVTVSS
chain 2: SYVLTQPPSVSVAPGKTARITCGGNNIGGKSVHWYQQKPGQAPLLVIYYDSARPSGIPERFSGSNSGNTATLTISRVEAGDEAEYHCQVWDSSSDHPVFGGGTKLTVL
B11: BD56-567 (protein)
chain 1: QVQLVESGGGVVQPGRSLRLSCAASGFTFSTYAFHWVRQAPGKGLEWVAVISDDGSYKDYADSVKGRFTISRDNSKNTLDLQMNTVTTEDTALYYCAREGQTTVTTVFDSWGQGTLVTVSS
chain 2: DIQMTQSPSSLSASVGDRVTITCRASQSISRFLNWYQLKPGQAPKLLIYAASSLQSGVPSRFSGSGSGTDFTLTISSLQPEDFATYYCQQSYVNPSITFGQGTRLEIK
B12: BD56-531 (protein)
chain 1: QVQLVQSGSELKKPGASVKVSCKASGYTFTDSSINWVRQAPGQGLEWMGWINTNTGTPTYAQGFTGRFVFSLDTSVTTAYLQISSLKAEDTAVYYCARIGAWYSSSWLDAAFDIWGQGTMVTVSS
chain 2: DIVMTQSPDSLAVSLGERATINCKSSQSVLYSSNNENLLAWYQQKPGQSPKLLINWASTRESGVPDRFSGSGSGTDFTLTISSLQPEDVAVYYCQQYFSTPLTFGGGTKVEIK

target: SARS-CoV-2 Omicron BA.1 spike pseudovirus; test: pseudovirus neutralization IC50; higher = weaker neutralization
Description: (§1)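 Single-round VSV luciferase pseudovirus mixed with antibody dilutions for 1 h and put on Huh-7 cells for about a day; IC50 from the dose curve.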

| Binder | pseudovirus neutralization IC50 |
| --- | --- |
| B1 | 3.24 µg/mL |
| B2 | 0.675 µg/mL |
| B3 | > 10 µg/mL |
| B4 | > 10 µg/mL |
| B5 | 3.95 µg/mL |
| B6 | 0.662 µg/mL |
| B7 | > 10 µg/mL |
| B8 | 4.26 µg/mL |
| B9 | 7.73 µg/mL |
| B10 | 1.07 µg/mL |
| B11 | 5.42 µg/mL |
| B12 | > 10 µg/mL |

target: SARS-CoV-2 Omicron BA.2 spike pseudovirus; test: as above
Description: as §1

| Binder | pseudovirus neutralization IC50 |
| --- | --- |
| B1 | 3.63 µg/mL |
| B2 | 0.635 µg/mL |
| B3 | > 10 µg/mL |
| B4 | > 10 µg/mL |
| B5 | 0.0468 µg/mL |
| B6 | 0.712 µg/mL |
| B7 | > 10 µg/mL |
| B8 | 3.93 µg/mL |
| B9 | 5.56 µg/mL |
| B10 | 1.42 µg/mL |
| B11 | 5.43 µg/mL |
| B12 | > 10 µg/mL |

target: SARS-CoV-2 Omicron BA.2.75 spike pseudovirus; test: as above
Description: as §1

| Binder | pseudovirus neutralization IC50 |
| --- | --- |
| B1 | 6.2 µg/mL |
| B2 | 0.609 µg/mL |
| B3 | > 10 µg/mL |
| B4 | > 10 µg/mL |
| B5 | 3.36 µg/mL |
| B6 | 0.734 µg/mL |
| B7 | > 10 µg/mL |
| B8 | 8.19 µg/mL |
| B9 | 3.39 µg/mL |
| B10 | 1.21 µg/mL |
| B11 | 7.63 µg/mL |
| B12 | > 10 µg/mL |

target: SARS-CoV-2 Omicron BA.5 spike pseudovirus; test: as above
Description: as §1

| Binder | pseudovirus neutralization IC50 |
| --- | --- |
| B1 | 5.23 µg/mL |
| B2 | > 10 µg/mL |
| B3 | > 10 µg/mL |
| B4 | > 10 µg/mL |
| B5 | > 10 µg/mL |
| B6 | > 10 µg/mL |
| B7 | > 10 µg/mL |
| B8 | 2.89 µg/mL |
| B9 | 7.64 µg/mL |
| B10 | 0.553 µg/mL |
| B11 | 5.05 µg/mL |
| B12 | > 10 µg/mL |

target: SARS-CoV-2 Omicron BQ.1.1 spike pseudovirus; test: as above
Description: as §1

| Binder | pseudovirus neutralization IC50 |
| --- | --- |
| B1 | 3.71 µg/mL |
| B2 | > 10 µg/mL |
| B3 | > 10 µg/mL |
| B4 | > 10 µg/mL |
| B5 | > 10 µg/mL |
| B6 | > 10 µg/mL |
| B7 | > 10 µg/mL |
| B8 | 2.52 µg/mL |
| B9 | 4.62 µg/mL |
| B10 | > 10 µg/mL |
| B11 | 5.27 µg/mL |
| B12 | > 10 µg/mL |

target: SARS-CoV-2 Omicron XBB spike pseudovirus; test: as above
Description: as §1

| Binder | pseudovirus neutralization IC50 |
| --- | --- |
| B1 | 5.44 µg/mL |
| B2 | > 10 µg/mL |
| B3 | > 10 µg/mL |
| B4 | > 10 µg/mL |
| B5 | > 10 µg/mL |
| B6 | > 10 µg/mL |
| B7 | > 10 µg/mL |
| B8 | 3.36 µg/mL |
| B9 | 4.85 µg/mL |
| B10 | > 10 µg/mL |
| B11 | 3.98 µg/mL |
| B12 | > 10 µg/mL |

target: SARS-CoV-2 early D614G spike pseudovirus; test: as above
Description: as §1

| Binder | pseudovirus neutralization IC50 |
| --- | --- |
| B1 | 0.6 µg/mL |
| B2 | 5.71 µg/mL |
| B3 | > 10 µg/mL |
| B4 | 2.19 µg/mL |
| B5 | 3.09 µg/mL |
| B6 | 0.724 µg/mL |
| B7 | > 10 µg/mL |
| B8 | 9.59 µg/mL |
| B9 | 3.65 µg/mL |
| B10 | 0.353 µg/mL |
| B11 | 0.871 µg/mL |
| B12 | 0.0156 µg/mL |
